# Results deposited as PubChem BioAssay AID624099 (ICCB-Longwood, 2012).
# Purpose: 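Human genes that papillomavirus E2 requires to repress the HPV18 LCR promoter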 (primary screen)
# Cell system: human C33A cervical carcinoma cells (HPV-negative) stably expressing BPV1 E2 and an HPV18 LCR luciferase reporter
# Reagents: siRNA pool against human genes, 40 nM
# Time to read-out: 72 h
# Detection: 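Per-well luciferase luminescence, z-scored on each plate against the plate mean and SD with control wells left out, then averaged across three replicate plates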
# Direction: mean z-score and z-score: higher = stronger reporter signal, weaker E2 silencing
# Rule for the call: 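Hit if mean z-score reaches 2 and two or more of three replicate z-scores also reach 2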
# Here is an unselected part of about 21,000 reagents tested. In the full data, 497 (2.4%) were called active. 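Higher z means weaker E2 silencing; only reporter increases were scored, and knock-downs that hurt cell survival may mask genuine repressor factors.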
gene,mean z-score,"z-score, replicate A","z-score, replicate B","z-score, replicate C",outcome
UNC13D,0.1,0.19,0.24,-0.12,inactive
UCP1,0.28,0.32,0.16,0.35,inactive
BATF3,1.37,1.11,1.41,1.57,inactive
SEC24A,-0.43,-0.35,-0.54,-0.4,inactive
HEXIM2,-0.66,-1.11,-0.43,-0.42,inactive
ZC3H7A,-1.52,-1.51,-1.48,-1.58,inactive
DTX2,0.41,0.34,0.36,0.53,inactive
CAMK2N2,-0.1,0.08,-0.34,-0.05,inactive
EPHA10,-1.04,-1.51,-0.71,-0.91,inactive
PRMT1,1.87,1.64,2.31,1.65,inactive
GABRG1,-0.42,-0.3,-0.44,-0.51,inactive
OR1N1,0.99,0.68,1.08,1.22,inactive

2 entries from above, ordered by “z-score, replicate B”, ascending.
gene,mean z-score,"z-score, replicate A","z-score, replicate B","z-score, replicate C",outcome
ZC3H7A,-1.52,-1.51,-1.48,-1.58,inactive
DTX2,0.41,0.34,0.36,0.53,inactive

The listing continues:
gene,mean z-score,"z-score, replicate A","z-score, replicate B","z-score, replicate C",outcome
PAXIP1,0.51,0.92,0.24,0.36,inactive
LOC389353 (retired record),1.57,1.65,1.32,1.74,inactive
PARP16,0.11,0.05,0.11,0.19,inactive
KRTAP4-2,0.99,0.93,1.03,1,inactive
DCHS1,-0.19,-0.56,0.06,-0.06,inactive
FAM131B,0.62,0.76,0.43,0.68,inactive
DLGAP5,0.76,0.69,0.81,0.79,inactive
RPS27P17,-2.72,-2.77,-2.21,-3.19,inactive
MRPL3,-0.97,-0.65,-1.12,-1.12,inactive
FAM87B,-0.45,-0.58,-0.55,-0.22,inactive
CFB,-0.11,0.15,-0.34,-0.13,inactive
